This passage reports stoichiometry N results from article PMC3295573, “Structural Insights into a Unique Legionella pneumophila Effector LidA Recognizing Both GDP and GTP Bound Rab1 in Their Active State” (2012).

By stoichiometry N is commonly meant the number of molecules, sites or subunits per partner or assembly.

The target in the assay is LidA(224-559) (Legionella pneumophila strain Corby). As to the kind of experiment: crystal structure.

In the case of “Rab1(S25N; 1-176) (from UniProt P62820 1-176) (domain or fragment)”, the stoichiometry N was 1.
